Measurements reported in PubChem BioAssay AID624099 (ICCB-Longwood, 2012)
In all, the deposit lists about 21,000 reagents; shown is a part drawn at random. 497 of all reagents (2.4%) were called active. 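Higher z means weaker E2 silencing; only reporter increases were scored, and knock-downs that hurt cell survival may mask genuine repressor factors.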 A number with no mark means an inactive call. Reagent sequences are not shown.

- Assay: 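Host factors E2 relies on to silence an HPV18 LCR reporter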 (primary screen)
- Cell system: human C33A cervical carcinoma cells (HPV-negative) stably expressing BPV1 E2 and an HPV18 LCR luciferase reporter
- Knock-down reagent: siRNA pool against human genes, 40 nM
- Duration: 72 h
- Detection: 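HPV18 LCR reporter light per well, converted to plate-wise z-scores that exclude control wells, and averaged over triplicate plates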
- Direction: mean z-score and z-score: higher = stronger reporter signal, weaker E2 silencing
- Active means: 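Mean z ≥ 2 together with z ≥ 2 in two or more of the three replicates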

target	PubChem SID	mean z-score	z-score, replicate A	z-score, replicate B	z-score, replicate C
ZMYND10	SID134324986	3.46 (active)	3.92	3.11	3.35
SMAGP	SID134319471	-0.31	-0.46	-0.34	-0.12
SLX4	SID134318981	0.68	0.74	0.42	0.9
SLX4	SID134328683	1.35	1.19	1.23	1.64
XAB2	SID134310673	1.34	1.09	1.54	1.39
ORMDL3	SID134320967	-0.48	-0.57	-0.79	-0.07
ARHGAP32	SID134313099	0.06	-0.02	-0.03	0.23
ZNF461	SID134320112	0.59	0.78	0.47	0.53
IL2	SID56479206	-0.04	-0.15	-0.01	0.04
SULT1C4	SID134314961	0.45	0.21	0.95	0.2
RDH16	SID134313191	-0.58	-0.67	-0.38	-0.69
PLEKHD1	SID134328494	-0.01	0.02	-0.08	0.04
LOC401057 (retired record)	SID134327309	0.52	0.74	0.47	0.34
CHRM1	SID56479071	0.33	0.34	0.35	0.31
PDE2A	SID134312688	-0.42	-0.52	-0.48	-0.26
ZBTB49	SID134312275	-0.31	-0.75	-0.34	0.16
COLQ	SID134317431	-0.67	-0.63	-0.76	-0.6
RAB13	SID134313264	0.14	0.29	0.01	0.13
ARL8B	SID134324017	1.9	2.2	2.21	1.31
TFF2	SID134315043	0.26	0.14	0.32	0.34
UBE2W	SID134314372	0.42	0.31	0.45	0.5
PDILT	SID134321737	-1.61	-1.78	-1.71	-1.36
LOC400992 (retired record)	SID134327142	-0.11	-0.44	0	0.12
CCSER2	SID134317962	0.61	0.72	0.64	0.46
TPSAB1	SID134311475	1.39	1.57	1.39	1.2
TPSAB1	SID134311476	-0.14	-0.27	-0.11	-0.03
PYGM	SID134314122	-0.4	-0.27	-0.41	-0.52
CDKAL1	SID134324417	-0.65	-0.7	-0.61	-0.64
ADAMTSL1	SID134317662	0.13	0.1	0.2	0.08
ADAMTSL1	SID134320985	0.51	0.04	0.97	0.39
CHURC1	SID134319506	-1.04	-1.03	-1.32	-0.77
FAM135A	SID134327651	0.47	0.25	0.67	0.49
OTOR	SID134321327	-1.47	-1.31	-1.7	-1.4
PSRC1	SID134317810	-0.2	0.11	-0.51	-0.21
BRIX1	SID134319417	-1.14	-0.29	-1.02	-2.1
PCDHGA1	SID134317508	0.9	0.89	0.98	0.82
PA2G4	SID134313709	1.45	1.18	1.49	1.68

Called active, of those listed so far:
target	PubChem SID	mean z-score	z-score, replicate A	z-score, replicate B	z-score, replicate C
ZMYND10	SID134324986	3.46 (active)	3.92	3.11	3.35

Further entries follow.
target	PubChem SID	mean z-score	z-score, replicate A	z-score, replicate B	z-score, replicate C
DUX4L8	SID134323700	0.8	0.93		0.67
GOLT1B	SID134319438	-0.08	-0.21	-0.31	0.27
SLC35F5	SID134315235	0.85	1.11	0.37	1.07
PPP1R12A	SID134315686	0.57	0.52	0.61	0.58
TJP2	SID56479233	0.11	0.41	-0.03	-0.06
LOC388681 (retired record)	SID134327003	-0.26	-0.46	-0.32	0
OTULIN	SID134322816	-0.13	0.41	-0.41	-0.4
HOXC6	SID134316186	0.3	0.67	0.24	-0.01
WFDC10B	SID134321495	-0.75	-0.4	-0.69	-1.16
CD2BP2	SID134323801	2.76 (active)	2.8	2.63	2.84
NXF1	SID134317893	-3.83	-3.99	-3.69	-3.8
CCR3	SID134310901	-0.87	-1.09	-0.76	-0.77
KIF22	SID134310688	4.74 (active)	4.97	4.66	4.6
PRRC2C	SID134318260	0.86	0.83	1.04	0.71
HIP1	SID134310710	0.82	0.93	0.81	0.71
LOC388097 (retired record)	SID134328527	-1.29	-1.67	-1.01	-1.19
SLC25A46	SID134312401	2.05 (active)	1.73	2.09	2.35
RC3H1	SID134325198	0.71	0.62	0.53	0.97
LOC401204 (retired record)	SID134327538	-0.42	-0.52	-0.52	-0.22
LOC285694 (retired record)	SID134326019	1.34	1.07	1.34	1.6
